A mixed list of measured activities; the numbers were collected in NIAID ChemDB.

Common to all: whole-cell or culture tests; agent: Candida albicans; read by: broth dilution; endpoint: EC50

Conditions beyond the fields shown may differ between rows. Blank or dashed fields: not listed here. ECn is the concentration giving n% inhibition of infection, replication or growth.

smiles | strain | value
CC1SC(c2ccccn2)N(C(C)C(=O)O)C1=O | - | 81.27 µM
O/N=C/c1ccc[n+](Cc2cc(C[n+]3cccc(/C=N/O)c3)on2)c1.[Br-].[Br-] | - | >20 µg/mL
COc1cc(NC(C)CCCNC(=O)[C@@H](CCCN)NC(=O)[C@H](N)CCCN)c2nc(C(C)(C)C)ccc2c1 | - | >20 µg/mL
C[C@H]1[C@H](O)[C@@H](C)/C=C/C=C/C=C/C=C/C=C/C=C/C=C/[C@H](O[C@@H]2O[C@H](C)[C@@H](O)[C@H](N)[C@@H]2O)C[C@@H]2O[C@](O)(C[C@@H](O)C[C@@H](O)CC[C@H](O)[C@@H](O)C[C@@H](O)CC(=O)O[C@H]1C)C[C@H](O)[C@H]2C(=O)O | green | 1 µM
O=C(O)CN1C(=O)CCSC1c1ccccn1 | - | 80.51 µM
COc1cc(/C=N/NC(=O)c2ccc(NC(C)=O)cc2)ccc1O | ATCC 10231 | 240 µM
COc1cc(NC(C)CCCNC(=O)[C@H](CCCN=C(N)N)NC(=O)[C@@H](N)CCCN=C(N)N)c2nc(C(C)(C)C)ccc2c1 | - | >20 µg/mL
O=C(O)CN1C(=O)CSC1c1ccc(Cl)cc1 | - | 77.51 µM
COc1cc(NC(C)CCCNC(=O)CC(NC(=O)[C@@H](N)CCCCN)C(=O)O)c2nc(C(C)(C)C)ccc2c1 | - | >20 µg/mL
COc1ccccc1C1SCC(=O)N1CC(=O)O | - | 79.49 µM
NC(=O)c1cc[n+](Cc2ccc(C[n+]3ccc(C(N)=O)cc3)o2)cc1.[Br-].[Br-] | - | >20 µg/mL
COc1cc(NC(C)CCCNC(=O)[C@@H](CCCN=C(N)N)NC(=O)[C@H](N)CCCN=C(N)N)c2nc(C(C)(C)C)ccc2c1 | - | >20 µg/mL
O=C(O)CN1C(=O)CSC1c1ccccn1 | - | 78.61 µM
O/N=C/c1cc[n+](Cc2ccc(C[n+]3ccc(/C=N/O)cc3)s2)cc1.[Cl-].[Cl-] | - | >20 µg/mL
COc1cc(NC(C)CCCNC(=O)CC(NC(=O)[C@H](N)CCCCN)C(=O)O)c2ncccc2c1 | - | >20 µg/mL
ON=Cc1ccc[n+](Cc2csc3ccccc23)c1.[Cl-] | - | >20 µg/mL
COc1ccccc1C1SC(C)C(=O)N1C(Cc1ccccc1)C(=O)O | - | 84.14 µM
COc1cc(NC(C)CCCNC(=O)[C@@H](CCCN)NC(=O)[C@H](N)CCCN)c2ncccc2c1 | - | >20 µg/mL
O=C(O)C(Cc1ccccc1)N1C(=O)CSC1c1ccccc1 | - | 78.49 µM
COc1cc(NC(C)CCCNC(=O)CCC(NC(=O)[C@H](N)CCCCN)C(=O)O)c2nc(C(C)(C)C)ccc2c1 | - | >20 µg/mL
O/N=C/c1cccc[n+]1Cc1ccc(C[n+]2ccccc2/C=N/O)s1.[Cl-].[Cl-] | - | >20 µg/mL
CC(=O)Nc1ccc(C(=O)N/N=C/c2ccc(O)cc2)cc1 | ATCC 10231 | 1680 µM

A second listing of 2 rows from above:

smiles,strain,value
COc1ccccc1C1SC(C)C(=O)N1C(Cc1ccccc1)C(=O)O,-,84.14 µM
O/N=C/c1cccc[n+]1Cc1ccc(C[n+]2ccccc2/C=N/O)s1.[Cl-].[Cl-],-,>20 µg/mL